{"source": "paper PMC6270063", "about": "“Novel Antimicrobial Peptide Dendrimers with Amphiphilic Surface and Their Interactions with Phospholipids — Insights from Mass Spectrometry” (Molecules, 2013)", "key": {"[1]": {"assay": "ESI-MS collision-induced dissociation of dendrimer/DMPC [1:1]2+ complexes", "format": "physicochemical", "conditions": "[1:1]2+ complex, gas phase, center-of-mass collision energy, single collision conditions; average of three measurements"}, "[2]": {"assay": "ESI-MS collision-induced dissociation of dendrimer/DMPG [1:1]2+ complexes", "format": "physicochemical", "conditions": "[1:1]2+ complex, gas phase, center-of-mass collision energy, single collision conditions; average of three measurements"}}}
{"smiles": "NCCCC[C@H](NC(=O)OCc1ccccc1Cl)C(=O)NCCNC(=O)CCN(CCC[C@@H](C(=O)NCCc1cnc[nH]1)N(CCC(=O)NCCNC(=O)[C@H](CCCCN)NC(=O)OCc1ccccc1Cl)CCC(=O)NCCNC(=O)[C@H](CCCCN)NC(=O)OCc1ccccc1Cl)CCC(=O)NCCNC(=O)[C@H](CCCCN)NC(=O)OCc1ccccc1Cl", "note": "[Dendrimer 3c]", "values": [{"measurement": "Collision energy for 50% dissociation of the complex (CID50), DMPC/dendrimer", "setting": "[1]", "value": 0.39, "unit": "eV"}, {"measurement": "Collision energy for 50% dissociation of the complex (CID50), DMPG/dendrimer", "setting": "[2]", "value": 0.54, "unit": "eV"}]}
{"smiles": "CCCCCCCCCCCCNC(=O)[C@H](CCCN(CCC(=O)NCCNC(=O)[C@H](CCCCN)NC(=O)OCc1ccccc1Cl)CCC(=O)NCCNC(=O)[C@H](CCCCN)NC(=O)OCc1ccccc1Cl)N(CCC(=O)NCCNC(=O)[C@H](CCCCN)NC(=O)OCc1ccccc1Cl)CCC(=O)NCCNC(=O)[C@H](CCCCN)NC(=O)OCc1ccccc1Cl", "note": "[Dendrimer 3d]", "values": [{"measurement": "Collision energy for 50% dissociation of the complex (CID50), DMPC/dendrimer", "setting": "[1]", "value": 0.37, "unit": "eV"}, {"measurement": "Collision energy for 50% dissociation of the complex (CID50), DMPG/dendrimer", "setting": "[2]", "value": 0.55, "unit": "eV"}]}
{"smiles": "CCCCCCCCCCCCNC(=O)[C@H](CCCN(CCC(=O)NCCNC(=O)[C@@H](N)CCCCNC(=O)OCc1ccccc1Cl)CCC(=O)NCCNC(=O)[C@@H](N)CCCCNC(=O)OCc1ccccc1Cl)N(CCC(=O)NCCNC(=O)[C@@H](N)CCCCNC(=O)OCc1ccccc1Cl)CCC(=O)NCCNC(=O)[C@@H](N)CCCCNC(=O)OCc1ccccc1Cl", "note": "[Dendrimer 3h]", "values": [{"measurement": "Collision energy for 50% dissociation of the complex (CID50), DMPC/dendrimer", "setting": "[1]", "value": 0.33, "unit": "eV"}, {"measurement": "Collision energy for 50% dissociation of the complex (CID50), DMPG/dendrimer", "setting": "[2]", "value": 0.44, "unit": "eV"}]}
